Measurements reported in PubChem BioAssay AID1259414 (Drosophila RNAi Screening Center, 2018)
Purpose: 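Fly genes that alter Wolbachia amount inside host cells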 (primary screen). System: Drosophila JW18 cells infected with Wolbachia. Knock-down reagent: long dsRNA against Drosophila genes, 0.25 µg dsRNA per well of a 384-well plate. Time to read-out: 5 days. Conditions: cells persistently infected with Wolbachia before knock-down; no added drug. Detection: 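Imaged fluorescence in situ signal for Wolbachia 23S rRNA per DAPI-counted host cell, given as a robust z-score within each plate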. Reading the numbers: Wolbachia per cell robust z: higher = more Wolbachia per host cell than the plate typical. Hit rule: 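Hit when robust z is 1.5 or more, or -1.5 or less, in at least two of three replicates; excludes dsRNAs with several or no targets, genes not expressed in JW18 and well A1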.
In all, the deposit lists about 24,000 reagents; shown is a random part of those that have a named target and a result. In the full data, about 1,210 (5%) were called active. 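Inactive calls also include excluded dsRNAs with several or no targets, genes unexpressed in JW18, and well A1, regardless of score.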 Entries without a mark were called inactive. A plus sign joins genes that one reagent is predicted to hit. Reagent sequences are not shown.

| gene | amplicon | Wolbachia per cell robust z, rep 1 | Wolbachia per cell robust z, rep 2 | Wolbachia per cell robust z, rep 3 |
| --- | --- | --- | --- | --- |
| Hs3st-B (GeneID 32918) | DRSC20067 | 0.187 | 0.445 | 0.463 |
| CG6083 (GeneID 39305) | DRSC10580 | -0.0626 | -0.396 | 1.17 |
| CG6083 (GeneID 39305) | DRSC24586 | 0.876 | 0.0897 | -2.36 |
| CG45076 + fau + CG45078 | DRSC12817 | -0.55 | -0.122 | -9.38 |
| CG45076 + fau + CG45078 | DRSC16943 | -1.13 | 0.39 | -0.0242 |
| CG45076 + fau + CG45078 | DRSC16944 | 0.608 | -0.605 | 1.24 |
| CG45076 + fau + CG45078 | DRSC27672 | 0.0124 | 0.394 | -0.954 |
| Meltrin (GeneID 3772109) | DRSC16274 | 0.0658 | -7.54 | 2.7 |
| Meltrin (GeneID 3772109) | DRSC21693 | 0.0714 | 0.157 | -1.15 |
| CG13454 (GeneID 39676) | DRSC10001 | 0.467 | -0.48 | -0.5 |
| AstA (GeneID 42947) | DRSC14634 | -0.0515 | -0.337 | -0.523 |
| CG11626 (GeneID 42323) | DRSC14336 | -4.87 | -0.33 | -2.17 |
| CG43336 (GeneID 12798414) | DRSC15765 | -3.26 | -2.54 | -0.723 |
| cn (GeneID 35724) | DRSC07594 | 0.249 | 1.04 | 0.412 |
| ebo + l(1)1Bb | DRSC18787 | -1.33 | -0.757 | -0.445 |
| ebo + l(1)1Bb | DRSC28174 | 0.491 | 1.06 | 0.763 |
| a (GeneID 43852) | DRSC04668 | 0.291 | 1.13 | -2.27 |
| a (GeneID 43852) | DRSC27708 | -0.204 | 1.5 | 1.1 |
| Gr22a (GeneID 117500) | DRSC22283 | 0.788 | 0.684 | -0.154 |
| Gr22a (GeneID 117500) | DRSC26809 | 1.31 | 1.25 | -1.29 |
| CG9286 (GeneID 41690) | DRSC16467 | 0.234 | 0.34 | -2.24 |
| CG9286 (GeneID 41690) | DRSC28102 | -1.43 | -0.314 | -0.503 |
| CG32278 + CG14963 | DRSC22203 | 0.229 | 0.197 | 1.14 |
| CG9630 (GeneID 40974) | DRSC16527 | 0.732 | 1.49 | 0.968 |
| CR31822 (GeneID 10178843) | DRSC01510 | 0.81 | -0.0821 | -0.584 |
| raskol (GeneID 32754) | DRSC19202 | 0.229 | 0.0298 | 0.857 |
| raskol (GeneID 32754) | DRSC19731 | 1.32 | 1.04 | 0.765 |
| raskol (GeneID 32754) | DRSC19964 | 0.949 | -1.71 | -0.129 |
| raskol (GeneID 32754) | DRSC21788 | -0.187 | 0.301 | 0.671 |

Continued (9 carried over from the part before).
| gene | amplicon | Wolbachia per cell robust z, rep 1 | Wolbachia per cell robust z, rep 2 | Wolbachia per cell robust z, rep 3 |
| --- | --- | --- | --- | --- |
| CG9286 (GeneID 41690) | DRSC16467 | 0.234 | 0.34 | -2.24 |
| CG9286 (GeneID 41690) | DRSC28102 | -1.43 | -0.314 | -0.503 |
| CG32278 + CG14963 | DRSC22203 | 0.229 | 0.197 | 1.14 |
| CG9630 (GeneID 40974) | DRSC16527 | 0.732 | 1.49 | 0.968 |
| CR31822 (GeneID 10178843) | DRSC01510 | 0.81 | -0.0821 | -0.584 |
| raskol (GeneID 32754) | DRSC19202 | 0.229 | 0.0298 | 0.857 |
| raskol (GeneID 32754) | DRSC19731 | 1.32 | 1.04 | 0.765 |
| raskol (GeneID 32754) | DRSC19964 | 0.949 | -1.71 | -0.129 |
| raskol (GeneID 32754) | DRSC21788 | -0.187 | 0.301 | 0.671 |
| CG17197 + CG17198 | DRSC15191 | 0.348 | 0.418 | 0.873 |
| CG9030 (GeneID 32427) | DRSC20139 | 0.643 | 1.01 | -1.48 |
| CG14439 (GeneID 31614) | DRSC17931 | -0.601 | -0.495 | -0.238 |
| B52 (GeneID 41670) | DRSC14121 | 0.25 | 0.914 | 0.436 |
| B52 (GeneID 41670) | DRSC25482 | 1.1 | 1.75 | 0.913 |
| B52 (GeneID 41670) | DRSC40719 | 0.666 | 1.5 | 0.674 |
| Cse1 (GeneID 35016) | DRSC03287 | 1.18 | 0.881 | 0.651 |
| Cse1 (GeneID 35016) | DRSC26857 | 1.14 | 0.63 | 3.11 |
| CG15651 (GeneID 37375) | DRSC04242 | 0.637 | 0.774 | 0.152 |
| sktl (GeneID 37356) | DRSC04715 | -0.501 | 0.118 | 1.15 |
| Or42a (GeneID 35514) | DRSC04912 | 0.327 | -2.22 | -0.505 |
| CG43155 (GeneID 32092) | DRSC19642 | 0.248 | 0.0254 | -0.838 |
| CG43155 (GeneID 32092) | DRSC19777 | -1.5 | 0.557 | 0.545 |
| Ada2b (GeneID 40966) | DRSC16531 | 0.214 | 1.01 | 1.95 |
| poe (GeneID 46243) | DRSC03593 | -0.712 | 0.000568 | -0.699 |
| poe (GeneID 46243) | DRSC28537 | -0.368 | 0.135 | 0.161 |
| CG33159 (GeneID 318901) | DRSC08199 | 0.224 | 0.137 | -0.816 |
| ND-B8 (GeneID 50178) | DRSC00449 | 0.0859 | -6.33 | 0.327 |
| ringer (GeneID 39813) | DRSC10455 | -0.894 | 0.77 | 0.767 |
| ringer (GeneID 39813) | DRSC38837 | -0.102 | 0.425 | 1.46 |
| ringer (GeneID 39813) | DRSC40661 | -0.321 | 0.00193 | -0.408 |
| RfC38 (GeneID 34550) | DRSC29807 | -1.02 | -0.0782 | -1.17 |
| Pglym78 (GeneID 43447) | DRSC16787 | -0.545 | 0.0728 | 1.46 |
| Pglym78 (GeneID 43447) | DRSC24626 | 1.2 | 0.427 | 1.35 |
| osa (GeneID 42130) | DRSC17022 | 2.64 (active) | 1.07 | 2.38 |
| osa (GeneID 42130) | DRSC40851 | -0.489 | -0.14 | -0.267 |
| CG31038 (GeneID 43535) | DRSC15051 | -10.9 | 0.176 | -0.804 |
| CG31038 (GeneID 43535) | DRSC16326 | 0.126 | -3.36 | 0.325 |
| CG31038 (GeneID 43535) | DRSC16327 | 0.332 | -2.18 | -0.792 |
| CG31038 (GeneID 43535) | DRSC25740 | -0.103 | 0.245 | 1.32 |
| CG3149 (GeneID 31489) | DRSC17732 | -0.121 | -2.87 | -0.0271 |
| CG3149 (GeneID 31489) | DRSC27511 | 0.0342 | 0.811 | 1.71 |
| MFS17 (GeneID 3354861) | DRSC37735 | 0.435 | 0.276 | 0.858 |
| CG9875 (GeneID 37698) | DRSC04585 | -1.11 | 0.188 | -0.585 |
| CG13494 (GeneID 37497) | DRSC04139 | -0.591 | -0.765 | -1.49 |
| CG13494 (GeneID 37497) | DRSC26588 | 0.635 | 0.00229 | 0.972 |
| Rpp21 (GeneID 318857) | DRSC22480 | -0.349 | 0.0787 | 0.371 |
| Rpp21 (GeneID 318857) | DRSC29867 | 0.282 | 1.66 | 1.31 |
| dgt4 (GeneID 31361) | DRSC18659 | -4.24 | 0.169 | -0.664 |
| dgt4 (GeneID 31361) | DRSC28573 | 0.203 | 0.244 | 1.11 |
| CG43254 (GeneID 12798054) | DRSC40533 | -0.947 | 0.211 | -1.13 |
| e(r) (GeneID 43951) | DRSC18768 | 0.304 | -1.05 | 1.01 |
| CG8841 (GeneID 36336) | DRSC07286 | -1.96 | 0.974 | -1.34 |
| Apc2 (GeneID 42871) | DRSC14115 | -1.11 | -1.39 | -0.188 |
| Pos (GeneID 43762) | DRSC15415 | -1.28 | -1.74 | -0.219 |
| mRpL38 (GeneID 32375) | DRSC19734 | 0.55 | -0.0268 | 0.147 |
| mRpL38 (GeneID 32375) | DRSC29074 | -0.361 | 0.0437 | -1.82 |
| CG4004 (GeneID 32226) | DRSC19791 | -0.84 | -0.285 | 1.03 |
| CG4004 (GeneID 32226) | DRSC19882 | -0.291 | -0.915 | -0.974 |
| CG4004 (GeneID 32226) | DRSC26904 | -0.324 | -1.34 | -1.45 |
| koi (GeneID 35594) | DRSC04980 | 0.297 | 0.661 | 0.484 |
| koi (GeneID 35594) | DRSC04991 | 0.464 | 0.121 | -2.29 |
| Sf3b1 (GeneID 33235) | DRSC00535 | 5.26 (active) | 0.87 | 6.51 |
| Sf3b1 (GeneID 33235) | DRSC39103 | 2.69 (active) | 1.44 | 5.43 |
| CG9302 (GeneID 34750) | DRSC03191 | 0.764 | 0.561 | 1.04 |
| Dhdds (GeneID 31708) | DRSC17756 | -0.0383 | 0.00011 | 0.526 |
| Dhdds (GeneID 31708) | DRSC29011 | 0.551 | 1.31 | -0.106 |
| Cyfip (GeneID 41861) | DRSC15679 | 1.37 | 1.28 | 0.826 |
